Anti-infective test results gathered from many reports (values: NIAID ChemDB through PubChem).

All rows: tests in culture; organism: Candida glabrata

MIC50, MIC90 and the like: level of inhibition, or share of isolates inhibited. ECn is the concentration giving n% inhibition of infection, replication or growth. Conditions beyond the fields shown may differ between rows. Blank or dashed fields: not listed here. a–b is a range or a potency band.

smiles | read by | setting | measure | strain or isolate | result
C[C@@H]1[C@H](O)[C@@H](C)/C=C/C=C/CC/C=C/C=C/C=C/C=C/C(O[C@H]2O[C@H](C)[C@@H](O)[C@H](N)[C@@H]2O)CC2O[C@](O)(CC(O)C(O)CCC(O)CC(O)CC(O)CC(=O)O[C@H]1C)CC(O)C2C(=O)O | broth dilution |  | MIC | Clinical isolates | 1 µg/mL
O=[N+]([O-])c1cc(CSc2nnnn2C2CCCCC2)cc([N+](=O)[O-])c1 | broth dilution | 24 h | EC80 | 20/I | >500 µM
Nc1nc(=O)n([C@H]2CS[C@@H](CO)O2)cc1F |  |  | MIC50 | 77 isolates | 0.125 µg/mL
C[C@@H]1[C@H](O)[C@@H](C)/C=C/C=C/CC/C=C/C=C/C=C/C=C/C(O[C@H]2O[C@H](C)[C@@H](O)[C@H](N)[C@@H]2O)CC2O[C@](O)(CC(O)C(O)CCC(O)CC(O)CC(O)CC(=O)O[C@H]1C)CC(O)C2C(=O)O | broth dilution |  | MIC | Clinical isolate | 3.125 µg/mL
C/C(=N\NC(N)=S)c1ccc(-n2ccnc2)cc1 | broth dilution |  | MIC50 | ATCC 2001 | >964 µM
COC(CCCCCCCCCCCCCC[C@@H](OC1O[C@@H](CO)[C@@H](O)[C@@H](O)[C@@H]1O)[C@@H](C)N)CCCCCCCC1NCCc2cc(O)c(O)cc21 |  |  | MIC |  | 30 µg/mL
O=C(O)c1cccc(-n2nnnc2SCc2cc([N+](=O)[O-])cc([N+](=O)[O-])c2)c1 | broth dilution | 24 h | EC80 | 20/I | >500 µM
C/C(=N\NC(=S)Nc1ccccc1)c1ccc(-n2ccnc2)cc1 | broth dilution |  | MIC50 | ATCC 2001 | >745 µM
CN(C/C=C/C#CC(C)(C)C)Cc1cccc2ccccc12 | broth dilution | biofilm | MIC100 | ATCC MYA2950 | >100 µg/mL
O=C(N/N=C\n1ccnc1)c1ccc(Cl)cc1 | broth dilution |  | MIC50 | ATCC 2001 | 15.7 µM
O=[N+]([O-])c1cc(C[Se]c2nnnn2C2CCCCC2)cc([N+](=O)[O-])c1 | broth dilution | 48 h | EC80 | 20/I | >500 µM
COc1cnc2c3c(nccc13)C1SC=CC1C2=O |  |  | MIC80 |  | >64 µg/mL
O=C(O)/C=C/c1ccccc1 | broth dilution / turbidity |  | EC50 | PYCC 2418 | 0.09 µM
C[C@@H](c1ncncc1F)[C@](O)(Cn1cncn1)c1ccc(F)cc1F | broth dilution |  | MIC | Clinical isolates | 0.12 µg/mL
COc1cc(O)c2c(c1)OC(c1ccc(O)cc1)CC2=O | broth dilution |  | MIC | ATCC 90030 | 630 µg/mL
C=CCc1ccc(OC)cc1 |  |  | MIC90 |  | 0.016–0.025 µg/mL
O=C(O)c1ccccc1O | broth dilution / turbidity |  | EC50 | PYCC 2418 | 0.2 µM
C[C@@H]1[C@H](O)[C@@H](C)/C=C/C=C/CC/C=C/C=C/C=C/C=C/C(O[C@H]2O[C@H](C)[C@@H](O)[C@H](N)[C@@H]2O)CC2O[C@](O)(CC(O)C(O)CCC(O)CC(O)CC(O)CC(=O)O[C@H]1C)CC(O)C2C(=O)O | broth dilution |  | MIC50 | ATCC 2001 | 1.05 µM
O=[N+]([O-])c1cc(C[Se]c2nnnn2Cc2ccccc2)cc([N+](=O)[O-])c1 | broth dilution | 24 h | EC80 | 20/I | >500 µM
CC(=O)N/N=C(\C)c1ccc(-n2ccnc2)cc1 | broth dilution |  | MIC50 | ATCC 2001 | >1030 µM
CC1=CC2C(N)=NC(N)=NC2C=C1c1ccc2c(N)nc(N)nc2c1 | broth dilution |  | MIC | ATCC 2001 | 1 µg/mL
O=Cc1cc(O)ccc1O | broth dilution / turbidity |  | EC50 | PYCC 2418 | 1.16 µM
CC(=O)N/N=C/c1ccc(-n2ccnc2)cc1 | broth dilution |  | MIC50 | ATCC 2001 | >1100 µM
CC[C@@H]1C[C@@]2(CC)O/C(=C\C(=O)OC)[C@@]3(CC)[C@H](CC)[C@]1(C)[C@@]23C | broth dilution | clinical isolate | MIC80 |  | 1.63 µM
O=C(N/N=C/c1ccc(-n2ccnc2)cc1)c1ccc([N+](=O)[O-])cc1 | broth dilution |  | MIC50 | ATCC 2001 | >745.6 µM
C[C@@H]1[C@H](O)[C@@H](C)/C=C/C=C/C=C/C=C/C=C/C=C/C=C/[C@H](OC2O[C@@H](C)[C@H](O)[C@@H](N)[C@H]2O)C[C@@H]2OC(O)(C[C@@H](O)C[C@@H](O)[C@H](O)CC[C@@H](O)C[C@@H](O)CC(=O)C[C@H]1C)C[C@H](O)[C@H]2C(=O)O |  |  | MIC | MTCC 3019 | 300 µg/mL
COc1cc(C[C@H](C)[C@H](C)Cc2ccc(O)c(O)c2)ccc1O | broth dilution |  | MIC50 | CCC 115-2000 | 62.5 µg/mL
CCCCCCCCOc1ccc(-c2ccc(C(=O)NC3CC(NCCN)CNC(=O)[C@@H]4[C@@H](O)[C@@H](C)CN4C(=O)[C@@H](CO)NC(=O)[C@H]([C@H](O)Cc4ccccc4)NC(=O)[C@@H]4C[C@@H](O)CN4C(=O)[C@H]([C@@H](C)O)NC3=O)cc2)cc1 | resazurin |  | MIC | NEM_7118432 | 0.5 µg/mL
CCC(C)n1ncn(-c2ccc(N3CCN(c4ccc(OC[C@H]5CO[C@](Cn6cncn6)(c6ccc(Cl)cc6Cl)O5)cc4)CC3)cc2)c1=O |  |  | MIC50 | 77 isolates | 1 µg/mL

The last 4 rows once more:

smiles	read by	setting	measure	strain or isolate	result
C[C@@H]1[C@H](O)[C@@H](C)/C=C/C=C/C=C/C=C/C=C/C=C/C=C/[C@H](OC2O[C@@H](C)[C@H](O)[C@@H](N)[C@H]2O)C[C@@H]2OC(O)(C[C@@H](O)C[C@@H](O)[C@H](O)CC[C@@H](O)C[C@@H](O)CC(=O)C[C@H]1C)C[C@H](O)[C@H]2C(=O)O			MIC	MTCC 3019	300 µg/mL
COc1cc(C[C@H](C)[C@H](C)Cc2ccc(O)c(O)c2)ccc1O	broth dilution		MIC50	CCC 115-2000	62.5 µg/mL
CCCCCCCCOc1ccc(-c2ccc(C(=O)NC3CC(NCCN)CNC(=O)[C@@H]4[C@@H](O)[C@@H](C)CN4C(=O)[C@@H](CO)NC(=O)[C@H]([C@H](O)Cc4ccccc4)NC(=O)[C@@H]4C[C@@H](O)CN4C(=O)[C@H]([C@@H](C)O)NC3=O)cc2)cc1	resazurin		MIC	NEM_7118432	0.5 µg/mL
CCC(C)n1ncn(-c2ccc(N3CCN(c4ccc(OC[C@H]5CO[C@](Cn6cncn6)(c6ccc(Cl)cc6Cl)O5)cc4)CC3)cc2)c1=O			MIC50	77 isolates	1 µg/mL